Compound potency records, mixed from different reports. Data source: NIAID ChemDB in PubChem.

Shared fields: growth or infection tests; agent: HIV-1; method: MTT / absorbance; read-out: EC50

Conditions beyond the fields shown may differ between rows. Blank or dashed fields: not listed here. ECn: concentration that inhibits the pathogen or its effect by n%.

| smiles | cell line | strain | result |
|---|---|---|---|
| CON(C)C(=O)c1ccc(S(=O)(=O)N(CC(C)C)C[C@@H](O)[C@H](Cc2ccccc2)NC(=O)O[C@H]2CO[C@H]3OCC[C@H]32)cc1 | MT-2 | LAI | 0.132 µM |
| CCCOC(=O)[C@H](Cc1ccccc1)NP(=O)(CO[C@H]1CO[C@@H](n2cnc3c(N)nc(N)nc32)C1)N[C@@H](Cc1ccccc1)C(=O)OCCC | MT-4 | IIIB | 0.048 µM |
| Cc1cccc(Nc2ccccc2C(=O)Nc2ccc(C(=O)/C=C/c3ccc(Cl)cc3)cc2)c1C | MT-4 | IIIB | >2.17 µM |
| Cc1cn([C@H]2C[C@H](N=[N+]=[N-])[C@@H](CO)O2)c(=O)[nH]c1=O | MT-4 | IIIB | 0.0075 µM |
| Cc1cc(C#CCOCCOCCOCC#Cc2cn(C3C=CC(COP(=O)(O)O)O3)c(=O)[nH]c2=O)cc(C)c1Oc1ccnc(Nc2ccc(C#N)cc2)n1 | MT-2 | IIIB | ~0.025 nM |
| Cc1ccc(-c2ncccc2OCC(=O)Nc2ccc(C(N)=O)cc2)cc1 | MT-4 | IIIB | >105 µM |
| CC(C)=CCN1Cc2c(OCCOCCOCCOCCOCCOCCn3c(=O)ccn([C@H]4C=C[C@@H](COP(=O)(O)OP(=O)(O)OP(=O)(O)O)O4)c3=O)ccc3[nH]c(=S)n(c23)C[C@@H]1C | MT-2 |  | 20 µM |
| Cc1cccc(Nc2ccccc2C(=O)Nc2ccc(-c3cc(-c4ccccc4)nc(=S)[nH]3)cc2)c1C | MT-4 | IIIB | >13.9 µM |
| CC(=O)c1ccc(NC(=O)COc2cccnc2-c2cccc3ccccc23)cc1 | MT-4 | IIIB | >8.23 µM |
| Nc1ncnc2c1ncn2[C@H]1C[C@@H](OCP(=O)(O)O)CO1 | MT-4 | IIIB | 4.69 µM |
| O=C(COc1cccnc1-c1cccc2ccccc12)Nc1ccccc1 | MT-4 | IIIB | >20.2 µM |
| CC(=O)c1ncc(-c2ccc(S(=O)(=O)N(CC(C)C)C[C@@H](O)[C@H](Cc3ccccc3)NC(=O)O[C@H]3CO[C@H]4OCC[C@H]43)cc2)o1 | MT-2 | LAI | 0.0028 µM |
| COC(=O)c1ccc(NC(=O)COc2cccnc2-c2cccc3ccccc23)c(Cl)c1 | MT-4 | IIIB | >9.35 µM |
| O=C(Nc1sc2c(c1C(=O)Nc1ccccn1)CCCCC2)c1ccc(O)c(O)c1 | MT-4 | IIIB | >30.69 µM |
| COC(=O)c1ccc(NC(=O)COc2cccnc2-c2cccc3ccccc23)c([N+](=O)[O-])c1 | MT-4 | IIIB | >62 µM |
| Cc1ccc(/C=C/C(=O)c2ccc(NC(=O)c3ccccc3Nc3cccc(C)c3C)cc2)cc1 | MT-4 | IIIB | >76.9 µM |

A second listing of 2 rows from above:

smiles,cell line,strain,result
Cc1cn([C@H]2C[C@H](N=[N+]=[N-])[C@@H](CO)O2)c(=O)[nH]c1=O,MT-4,IIIB,0.0075 µM
O=C(Nc1sc2c(c1C(=O)Nc1ccccn1)CCCCC2)c1ccc(O)c(O)c1,MT-4,IIIB,>30.69 µM